# Measurements published in publication PMC10022506.
# Test system: CC(=O)C(=O)O
# Assay: purified protein
# Details: apparent, 100 mM formaldehyde, 1 mM Mg2+, 50 mM CHES pH 9.0, 45 °C
Substance,Km [mM],kcat [s⁻¹],kcat/Km [M⁻¹ s⁻¹]
PaADL (Pseudomonas aeruginosa; L241A/V121A),52 ± 3.8,7.55,147
PaADL (Pseudomonas aeruginosa; L241A),68 ± 7.8,7.02,103
PaADL (Pseudomonas aeruginosa; V121A),41 ± 3.1,6.55,158
